From PMC6025358 (Marine Drugs, 2018)

By UniProt entry, the sequences of proteins in these tests, tags left out. Residues count along the entry.
UniProt P04757, 26-499 limits assumed: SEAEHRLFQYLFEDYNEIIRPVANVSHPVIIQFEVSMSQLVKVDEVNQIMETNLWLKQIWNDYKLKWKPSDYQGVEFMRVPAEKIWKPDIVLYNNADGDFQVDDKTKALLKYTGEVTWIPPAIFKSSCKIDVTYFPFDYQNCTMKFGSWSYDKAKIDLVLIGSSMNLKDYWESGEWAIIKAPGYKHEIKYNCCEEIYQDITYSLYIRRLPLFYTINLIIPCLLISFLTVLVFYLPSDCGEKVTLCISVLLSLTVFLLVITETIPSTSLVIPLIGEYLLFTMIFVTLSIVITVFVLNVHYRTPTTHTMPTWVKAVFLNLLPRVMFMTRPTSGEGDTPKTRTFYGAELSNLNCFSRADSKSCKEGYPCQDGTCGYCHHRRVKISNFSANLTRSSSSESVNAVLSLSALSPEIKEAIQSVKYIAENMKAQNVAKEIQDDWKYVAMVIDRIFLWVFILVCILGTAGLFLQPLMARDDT
UniProt P12392, 21-495 limits assumed: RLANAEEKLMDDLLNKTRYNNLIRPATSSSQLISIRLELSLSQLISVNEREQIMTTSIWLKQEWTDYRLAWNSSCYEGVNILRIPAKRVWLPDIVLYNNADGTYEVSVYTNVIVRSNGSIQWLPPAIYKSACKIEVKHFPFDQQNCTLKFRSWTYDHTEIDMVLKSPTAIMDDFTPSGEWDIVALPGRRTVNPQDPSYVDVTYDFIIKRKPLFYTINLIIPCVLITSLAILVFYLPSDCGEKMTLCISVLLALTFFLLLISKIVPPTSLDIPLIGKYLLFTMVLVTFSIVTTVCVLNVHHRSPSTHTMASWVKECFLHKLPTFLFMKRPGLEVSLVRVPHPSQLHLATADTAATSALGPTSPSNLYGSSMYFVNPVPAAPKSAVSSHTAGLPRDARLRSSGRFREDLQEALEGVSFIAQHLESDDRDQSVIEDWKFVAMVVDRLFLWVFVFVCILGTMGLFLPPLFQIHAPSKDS

Target: rat α3β4 nAChR (Rattus norvegicus, UniProt P04757+P12392)
Conditions: rat α3β4 nAChR in Xenopus oocytes; for Inhibition of ACh-evoked α3β4 nAChR-mediated current: peptide at 1 μM, mean, n = 3–6; for IC50: read-out: α3β4 nAChR, IC50, two-electrode voltage clamp at −70 mV, 100 μM ACh 1-s pulses, 5 min toxin incubation, 95% confidence interval in parentheses, 3 to 8 oocytes

| Structure (SMILES) | Inhibition of ACh-evoked α3β4 nAChR-mediated current | IC50 [nM] |
| --- | --- | --- |
| CC[C@H](C)[C@@H]1NC(=O)[C@@H]2CCCN2C(=O)[C@H](CO)NC(=O)[C@H](CCC(N)=O)NC(=O)[C@H](C)NC(=O)[C@H](CO)NC(=O)[C@@H]2CSSC[C@H](NC(=O)CN)C(=O)N[C@@H](CSSC[C@@H](C(N)=O)NC1=O)C(=O)N[C@@H](CO)C(=O)N[C@@H](Cc1c[nH]cn1)C(=O)N1CCC[C@H]1C(=O)N[C@@H](C(C)C)C(=O)N2 | nearly no inhibition | > 10000 |
| CC[C@H](C)[C@@H]1NC(=O)[C@H](C)NC(=O)[C@H](CO)NC(=O)[C@@H]2CSSC[C@H](NC(=O)CN)C(=O)N[C@@H](CSSC[C@@H](C(N)=O)NC(=O)[C@H]([C@@H](C)CC)NC(=O)[C@@H]3CCCN3C(=O)[C@H](CO)NC1=O)C(=O)N[C@@H](CO)C(=O)N[C@@H](Cc1c[nH]cn1)C(=O)N1CCC[C@H]1C(=O)N[C@@H](C(C)C)C(=O)N2 | > 80% | 69.1 |
| CC[C@H](C)[C@@H]1NC(=O)[C@@H]2CCCN2C(=O)[C@H](CO)NC(=O)[C@H](CCCNC(=N)N)NC(=O)[C@H](C)NC(=O)[C@H](CO)NC(=O)[C@@H]2CSSC[C@H](NC(=O)CN)C(=O)N[C@@H](CSSC[C@@H](C(N)=O)NC1=O)C(=O)N[C@@H](CO)C(=O)N[C@@H](Cc1c[nH]cn1)C(=O)N1CCC[C@H]1C(=O)N[C@@H](C(C)C)C(=O)N2 | nearly no inhibition | > 10000 |
| CC[C@H](C)[C@@H]1NC(=O)[C@@H]2CCCN2C(=O)[C@H](CO)NC(=O)[C@H](C)NC(=O)[C@H](C)NC(=O)[C@H](CO)NC(=O)[C@@H]2CSSC[C@H](NC(=O)CN)C(=O)N[C@@H](CSSC[C@@H](C(N)=O)NC1=O)C(=O)N[C@@H](CO)C(=O)N[C@@H](Cc1cnc[nH]1)C(=O)N1CCC[C@H]1C(=O)N[C@@H](C(C)C)C(=O)N2 | – | > 10000 |
| CC[C@H](C)[C@@H]1NC(=O)[C@@H]2CCCN2C(=O)[C@H](CO)NC(=O)[C@H](CCC(=O)O)NC(=O)[C@H](C)NC(=O)[C@H](CO)NC(=O)[C@@H]2CSSC[C@H](NC(=O)CN)C(=O)N[C@@H](CSSC[C@@H](C(N)=O)NC1=O)C(=O)N[C@@H](CO)C(=O)N[C@@H](Cc1c[nH]cn1)C(=O)N1CCC[C@H]1C(=O)N[C@@H](C(C)C)C(=O)N2 | nearly no inhibition | > 10000 |
| CC[C@H](C)[C@@H]1NC(=O)[C@@H]2CCCN2C(=O)[C@H](CO)NC(=O)[C@H](CC(C)C)NC(=O)[C@H](C)NC(=O)[C@H](CO)NC(=O)[C@@H]2CSSC[C@H](NC(=O)CN)C(=O)N[C@@H](CSSC[C@@H](C(N)=O)NC1=O)C(=O)N[C@@H](CO)C(=O)N[C@@H](Cc1c[nH]cn1)C(=O)N1CCC[C@H]1C(=O)N[C@@H](C(C)C)C(=O)N2 | > 80% | 257 |
| CC[C@H](C)[C@@H]1NC(=O)[C@@H]2CCCN2C(=O)[C@H](CO)NC(=O)[C@H](C)NC(=O)[C@H](C)NC(=O)[C@H](CO)NC(=O)[C@@H]2CSSC[C@H](NC(=O)CN)C(=O)N[C@@H](CSSC[C@@H](C(N)=O)NC1=O)C(=O)N[C@@H](CO)C(=O)N[C@@H](Cc1c[nH]cn1)C(=O)N1CCC[C@H]1C(=O)N[C@@H](C(C)C)C(=O)N2 | nearly no inhibition | – |
| CC[C@H](C)[C@@H]1NC(=O)[C@@H]2CCCN2C(=O)[C@H](CO)NC(=O)[C@H](CCCCN)NC(=O)[C@H](C)NC(=O)[C@H](CO)NC(=O)[C@@H]2CSSC[C@H](NC(=O)CN)C(=O)N[C@@H](CSSC[C@@H](C(N)=O)NC1=O)C(=O)N[C@@H](CO)C(=O)N[C@@H](Cc1c[nH]cn1)C(=O)N1CCC[C@H]1C(=O)N[C@@H](C(C)C)C(=O)N2 | nearly no inhibition | > 10000 |
| CC[C@H](C)[C@@H]1NC(=O)[C@@H]2CCCN2C(=O)[C@H](CO)NC(=O)[C@H](C(C)C)NC(=O)[C@H](C)NC(=O)[C@H](CO)NC(=O)[C@@H]2CSSC[C@H](NC(=O)CN)C(=O)N[C@@H](CSSC[C@@H](C(N)=O)NC1=O)C(=O)N[C@@H](CO)C(=O)N[C@@H](Cc1c[nH]cn1)C(=O)N1CCC[C@H]1C(=O)N[C@@H](C(C)C)C(=O)N2 | – | 980 |
